Test results: US8354498B2, “CD4 mimic peptides and their uses” (Commissariat a l'Energie Atomique, priority 2006, dated 2013)

Key:
gp120 Bal = assay: Direct binding by fluorescence anisotropy of Alexa-labeled mini-proteins; design: species or system HIV-1; details: Alexa labeled mini-protein 0.5 nM; gp120 Bal (R5-tropic); read-out: Dissociation constant (Kd)
Experimental: Binding assays by fluorescence anisotropy were made in a LJL Analyst (LJL BIOSYSTEMS) microplate reader using 384-wells plates. All peptides were diluted in 10 mM sodium phosphate buffer, pH 7.0, with 135 mM NaCl and 0.05% Tween 20.
Direct binding assays of fluorescent peptides were performed in triplicates by adding 10 μL of 0.5 nM Alexa-labeled mini-proteins and 10 μL of serial dilutions (two-thirds dilutions in 16 wells, starting at 200 nM) of gp120 SF2, SF162, BaL, IIIB and YU2. Collected data were fitted to the following equation using a non-linear regression program (Prism, GraphPad software Inc.):
[formula] where A, Af and Ab are respectively the measured, free and fully bounded anisotropy, Lt is the total labeled mini-protein concentration, Rt is the total gp120 concentration and Kd the thermodynamic dissociation constant. d) FACS Analysis of CD4M48-Induced Envelope Conformational Change

HIV-1 Ba-L = assay: Dendritic cells assay: MO-DC/CD4+ T cell co-cultures, replication competent virus; assay type: cell-based; details: for EC50 range after 7 days of primary culture: Day 7; for Cmin, secondary culture, Day 28 (minimal concentration blocking infection): confirmed at Day 28
Experimental: Dendritic cell experiments were preformed with the replication-competent CCR5 co-receptor, using non-syncytium inducing, subtype B HIV-1 strain Ba-L whose infectious titer was determined on cultures of PHA/IL-2 stimulated PBMC.
Monocytes were separated from the buffy-coats of HIV seronegative blood donors by counter-flow elutriation and E-rosetting. They were subsequently differentiated to monocyte-derived dendritic cells (MO-DC) using GM-CSF and IL-4. […] After 30 minutes, 100 μl of MO-DC were added (4×10^5 cells/ml) and incubated for 2 h (37° C., 5% CO2). Afterwards, cells were washed 3 times and autologous CD4+ T cells were added, in the presence of compound. Co-cultures were incubated for 24 h, after which the cells were washed again (3 times) to remove the compound. Cells were incubated during 14 days of primary culture, during which half of the culture medium was refreshed twice weekly, without compound. At day 14, cultures were washed and PHA/IL-2 activated PBMC were added (2×10^5 cells/cup) to detect any latent or subliminal infection during a supplementary 14 days of secondary culture. Culture supernatants of primary (day 7 and day 14) and secondary (day 28) cultures were analyzed for the presence of HIV p24 Ag by a monoclonal p24 antibody (HuMab-HIVp24; BIOMARIC NV) enzyme-linked immunosorbant assay (ELISA).
Importantly, the replication-competent HIV-1 Ba-L reference strain, was used for these experiments. The virus was shortly pre-incubated with a dilution range of one of the compounds before addition of the MO-DC target cells. The compound remained present during infection and during the first 24 h of the co-culture of the MO-DC with the autologous CD4^+ T cells, but was washed away afterwards.

[1] = target: T1, gp120SF162 binding to CCR5+-CHO cells (Human immunodeficiency virus type 1 group M subtype B, UniProt P19550); assay: FACS analysis of gp120 binding to CCR5+-CHO cells in presence of CD4 mimics; assay type: cell-based, HIV-1; details: gp120SF162 pre-incubated with mini-protein
T1 construct: R5-tropic SF162 and Dual-tropic SF2 recombinant gp120s were produced in mammalian cells (CHO); made in house; host or cells: gp120: CHO; CCR5: transfected CHO-K1 cells
Text: FIG. 7 illustrates the FACS analysis of the binding of recombinant envelope gp120 to CCR5^+-CHO cells in absence or in presence of various CD4-mimics, in comparison with soluble CD4.
FIG. 13 illustrates the FACS analysis of the binding of recombinant envelope gp120 to CCR5^+-CHO cells in absence or in presence of various CD4-mimics in comparison with soluble CD4.
FIG. 19 illustrates the FACS analysis of the binding of gp120SF162 to CCR5^+ CHO cells in absence or in presence of CD4M48 monomer or hetero-bivalent CD4M48−heparin. The ability of gp120 in complex with CD4M48 alone, CD4M48 covalently bound to heparin (noted M48−heparin), CD4M48 in presence of free LMW heparin (1:1) (noted M48+heparin) to bind to cellular co-receptor CCR5 was investigated.
Adherent CHO-K1 cells expressing CCR5 (Samson et al., Biochemistry, 1996, 35, 3362-3367; Blanpain et al., Blood, 2000, 96, 1638-1645) were used to analyze gp120SF162 conformational change in complex with different mini-proteins, by FACS (BECKTON DICKINSON). Briefly, 0.03 μg of gp120SF162 were pre-incubated overnight at 4° C. in absence or in presence of 10 nM CD4 or 10 nM mini-proteins and further added to 2×10^5 cells in HAM F12 supplemented with 10% SVF, 1% penicillin/streptomycin. After 1 h incubation at room temperature, cells were washed 3 times with phosphate buffer saline (PBS) containing 5% BSA. Bound gp120 was subsequently stained with D7324 antibody (AALTO BIO REAGENTS) washed and labeled with goat anti-sheep secondary antibody conjugated to phycoerythrin (PE) (R&D SYSTEMS). After final wash, cells were analyzed for envelope binding by FACS.

gp120 = details: cited from earlier work
HIV-1 pseudovirus CA10-3 = assay: HIV single cycle pseudovirus assay in GHOST cells; assay type: cell-based; details: pseudovirus CA10-3, CRF01_A/E, X4; read-out: antiviral activity EC50
Experimental: (§1) For single-cycle infection experiments, HIV pseudoviruses representative of different HIV-1 subtypes were produced by co-transfection of 2×10^5 HEK293 (American Type Culture Collection) derived cells expressing the SV40 T antigen (HEK293 T), using the calcium phosphate method (ProFection® mammalian transfection system; PROMEGA). To this end, 1 μg of an HIV-1 env expressing vector under control of a CMV promoter, derived from pcDNA4/TO backbone vector (INVITROGEN) and 400 ng of the HIV-1 genomic vector (pNL4-3.Luc R^−E^−; National Institutes of Health AIDS Research and Reference Reagent program; catalogue number 3418), under control of the LTR promoter were used. pNL4-3.Luc R^−E^− contains the whole HIV genome, including a packaging signal, but has a frameshift in the env and vpr genes rendering it non-infectious. Furthermore a luciferase reporter gene replaces the nef gene. After 24 h, the medium was replaced with medium containing 1 mM sodium butyrate (SIGMA-ALDRICH) and the cells were further incubated for an additional 24 h. Afterwards, the supernatant with the pseudovirus was harvested, filtered (Millex 0.45 μm filters, MILLIPORE) and after adding Fetal calf serum (FCS; 10%) stored at −80° C. Pseudoviruses of different HIV-1 subtypes were created, including pseudoviruses derived from the subtype B, CCR5 co-receptor using strains Ba-L and SF162; the subtype B, CXCR4 co-receptor using strains Mn; the subtype C, CCR5 co-receptor using strains VI829, VI1358 and MJ4 and the CRF01_AE, CXCR4 co-receptor using strain CA10-3.
(§2) Fifty microliters of HIV pseudovirus were pre-incubated with 50 μl of a dilution series of a CD4 miniprotein or reference compound. After 15 minutes, 100 μl of GHOST target cells (AIDS REFERENCE AND REAGENT PROGRAM; 1.2×10^5 cells/ml) expressing CD4 and either of the HIV co-receptors CCR5 or CXCR4 were added to the 96-well cups containing the pre-treated pseudovirus. The GHOST cells were lysed 48 h post-infection by addition of the luciferin substrate (SteadyLite HTS, PERKIN ELMER LIFE SCIENCES). The resulting light signal, expressed as relative lights units (RLU), was quantified in a luminometer (Top Count™, CANBERRA-PACKARD).

HIV-1 pseudovirus SF162 = assay: HIV single cycle pseudovirus assay in GHOST cells; assay type: cell-based
Experimental: as §1, §2

SMILES | Kd (gp120 Bal) [nM] | EC50 range after 7 days of primary culture (HIV-1 Ba-L) | Cmin, secondary culture, Day 28 (minimal concentration blocking infection) (HIV-1 Ba-L) [nM] | Binding of gp120 to CCR5+-CHO cells induced by the mimic (conformational change of gp120) [1] | Kd for different gp120s in competition with soluble CD4 (gp120) | EC50 (HIV-1 pseudovirus CA10-3) [nM] | EC50 (HIV-1 pseudovirus SF162; pseudovirus SF162, subtype B, R5, read-out: antiviral activity EC50) [nM] | Enhancement of antiviral activity relative to M47 and M33 (HIV-1 pseudovirus SF162; single-cycle HIV-1 SF162 pseudovirus assay) [fold] | EC50 (HIV-1 Ba-L; Day 14, read-out: EC50, primary culture, Day 14) [nM]
CC(C)C[C@@H]1NC(=O)CNC(=O)[C@H](CC(C)C)NC(=O)[C@H](CO)NC(=O)[C@H](CCCCN)NC(=O)[C@@H]2CSSC[C@@H](C(=O)N[C@H](C(N)=O)C(C)C)NC(=O)[C@H](C)NC(=O)[C@@H]3CSSC[C@H](NC(=O)[C@H](Cc4ccccc4)NC(=O)[C@H](Cc4c[nH]cn4)NC(=O)[C@H](CC(C)C)NC(=O)[C@H](CC(N)=O)NC(=O)CCSSC[C@H](NC(=O)[C@H](CCCCN)NC(=O)CNC(=O)[C@H](CC(C)C)NC1=O)C(=O)N[C@@H](C)C(=O)NCC(=O)N[C@@H](CO)C(=O)N[C@@H](Cc1ccc(-c4ccccc4)cc1)C(=O)N3)C(=O)N[C@@H](CCC(N)=O)C(=O)N[C@@H](CC(C)C)C(=O)N[C@@H](CCCNC(=N)N)C(=O)N2 [CD4M33, reference compound] | 6.36 ± 0.26 | lower μM range | >3414 | intermediate fluorescence response | nanomolar | – | – | – | –
CC(C)C[C@@H]1NC(=O)CNC(=O)[C@H](CC(C)C)NC(=O)[C@H](CO)NC(=O)[C@H](CCCCN)NC(=O)[C@@H]2CSSC[C@@H](C(=O)N[C@H](C(N)=O)C(C)C)NC(=O)[C@H](C)NC(=O)[C@@H]3CSSC[C@H](NC(=O)[C@H](Cc4ccccc4)NC(=O)[C@H](Cc4c[nH]cn4)NC(=O)[C@H](CC(C)C)NC(=O)[C@H](CC(N)=O)NC(=O)CCSSC[C@H](NC(=O)[C@H](CCCNC(=N)N)NC(=O)CNC(=O)[C@H](CC(C)C)NC1=O)C(=O)N[C@@H](C)C(=O)N1CCC[C@@H]1C(=O)N[C@@H]([C@@H](C)O)C(=O)N[C@@H](Cc1ccc(OCC4CCCCC4)cc1)C(=O)N3)C(=O)N[C@@H](CCC(N)=O)C(=O)N[C@@H](CC(C)C)C(=O)N[C@@H](CCCNC(=N)N)C(=O)N2 [CD4M48_U1] | – | nM range | 66 | better ability to induce the conformational change of gp120 | – | 0.3 | 0.65 | 36 | 16
CC(C)C[C@@H]1NC(=O)CNC(=O)[C@H](CC(C)C)NC(=O)[C@H](CO)NC(=O)[C@H](CCCCN)NC(=O)[C@@H]2CSSC[C@@H](C(=O)N[C@H](C(N)=O)C(C)C)NC(=O)[C@H](C)NC(=O)[C@@H]3CSSC[C@H](NC(=O)[C@H](Cc4ccccc4)NC(=O)[C@H](Cc4c[nH]cn4)NC(=O)[C@H](CC(C)C)NC(=O)[C@H](CC(N)=O)NC(=O)CCSSC[C@H](NC(=O)[C@H](CCCNC(=N)N)NC(=O)CNC(=O)[C@H](CC(C)C)NC1=O)C(=O)N[C@@H](C)C(=O)N1CCC[C@@H]1C(=O)N[C@@H]([C@@H](C)O)C(=O)N[C@@H](Cc1ccc(OCCC4CCCC4)cc1)C(=O)N3)C(=O)N[C@@H](CCC(N)=O)C(=O)N[C@@H](CC(C)C)C(=O)N[C@@H](CCCNC(=N)N)C(=O)N2 [CD4M48_U2] | – | – | 656 | better ability to induce the conformational change of gp120 | – | – | – | – | –
CC(C)C[C@@H]1NC(=O)CNC(=O)[C@H](CC(C)C)NC(=O)[C@H](CO)NC(=O)[C@H](CCCCN)NC(=O)[C@@H]2CSSC[C@@H](C(=O)N[C@H](C(N)=O)C(C)C)NC(=O)[C@H](C)NC(=O)[C@@H]3CSSC[C@H](NC(=O)[C@H](Cc4ccccc4)NC(=O)[C@H](Cc4c[nH]cn4)NC(=O)[C@H](CC(C)C)NC(=O)[C@H](CC(N)=O)NC(=O)CCSSC[C@H](NC(=O)[C@H](CCCNC(=N)N)NC(=O)CNC(=O)[C@H](CC(C)C)NC1=O)C(=O)N[C@@H](C)C(=O)N1CCC[C@@H]1C(=O)N[C@@H]([C@@H](C)O)C(=O)N[C@@H](Cc1ccc(OCCc4ccccc4)cc1)C(=O)N3)C(=O)N[C@@H](CCC(N)=O)C(=O)N[C@@H](CC(C)C)C(=O)N[C@@H](CCCNC(=N)N)C(=O)N2 [CD4M48_U3] | – | – | 6546 | – | – | – | – | – | –
